Measured data: PubChem BioAssay AID504761 (Drosophila RNAi Screening Center, 2011)

Aim: 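Genome-wide fly cell screen for genes dengue virus requires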 (primary screen)
System: D.Mel-2 cells from Drosophila
Reagents: long dsRNA against Drosophila genes
Conditions: infection with dengue virus type 2; dose and infection time not stated
Detection: 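Per well on two replicate plates, imaging gave the percent of cells positive for viral envelope protein, ranked by infection, and a nuclear count of cells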
Scale: infection score: higher = more virus-infected cells; cell count: higher = more cells in the well
Active means: 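Low infection ranks in the two replicates (chance level up to 0.065) followed by a retest with a 1.5-fold or larger significant decrease, p below 0.05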
Meaning of the calls: active = confirmed: knock-down lowers infection; inactive = not picked or not confirmed
The screen tested about 22,000 reagents; this is an unselected part of those with a known target gene and a result. Over the whole deposit, 116 (0.52%) were called active. 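Calls depend on retest data that are not deposited; infection was ranked per plate without normalising between plates; the unit of the infection score is not given.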 Raw values are not corrected between plates. Reagents against one gene are numbered here. A plus sign joins genes that one reagent is predicted to hit. Not stated in the record: the amount of reagent, the time to read-out.

gene knocked down	reagent no.	infection score, replicate 1	infection score, replicate 2	cell count, replicate 1	cell count, replicate 2	Call
su(r) (GeneID 31858)	1	1.49	7.64	6734	6990	inactive
CG7309 (GeneID 34509)	1	1.84	1.01	6562	6466	inactive
CG7309 (GeneID 34509)	2	15.3	9.04	6099	6717	inactive
CG9801 (GeneID 41044)	1	2.28	2.99	6897	6649	active
Obp57c (GeneID 37311)	1	3.23	1.75	6403	6415	inactive
CG31229 (GeneID 318636)	1	7.75	7.41	5537	4387	inactive
FBXO11 (GeneID 41209)	1	19.9	22.6	4766	5136	inactive
CG32240 (GeneID 317933)	1	2.23	2.67	6815	5879	inactive
SdhAL (GeneID 39348)	1	12.8	28.3	5249	4940	inactive
CG12229 (GeneID 39945)	1	20.4	2.75	4838	472	inactive
CG14762 (GeneID 35768)	1	0.41	0.79	6148	5940	inactive
CG14762 (GeneID 35768)	2	14	19.3	5955	5387	inactive
CG8028 (GeneID 32923)	1	1.84	2.46	5877	5932	inactive
Eato (GeneID 34783)	1	31	44.3	5697	5343	inactive
Eato (GeneID 34783)	2	2.47	1.71	6691	6906	inactive
fabp + sea	1	23.6	15	6143	6479	inactive
fabp + sea	2	8.87	9.67	6414	6611	inactive
Pgm2a (GeneID 35923)	1	21.9	5.93	5648	6324	inactive
H2.0 (GeneID 33841)	1	7.29	4.32	6242	6067	inactive
H2.0 (GeneID 33841)	2	7.23	2.02	6392	6233	inactive
CG8837 (GeneID 33545)	1	9.61	1.62	6231	6609	inactive
CG8837 (GeneID 33545)	2	23.4	9.1	5759	2406	inactive
Best1 (GeneID 53431)	1	2.55	5.5	5447	6231	inactive
Best1 (GeneID 53431)	2	3.62	1.05	5663	5921	inactive
ranshi (GeneID 41041)	1	4.39	4.79	6212	6299	inactive
ranshi (GeneID 41041)	2		19.6	382	4426	inactive
CG30192 (GeneID 246510)	1	3.03	0.6	5743	6145	inactive
CG42458 (GeneID 2768945)	1	0.88	3.41	6355	6683	inactive
CG42458 (GeneID 2768945)	2	1.79	8.47	5433	6128	inactive
CG42458 (GeneID 2768945)	3	3.78	1.11	6643	6404	inactive
CG42458 (GeneID 2768945)	4	14.7	10.9	6414	6423	inactive
CG6567 + CG4565	1	1.19	11	6651	6794	inactive
rhi (GeneID 44879)	1	28.8	17.9	5893	6573	inactive
CG42729 (GeneID 3885667)	1	14.9	11.2	5280	5291	inactive
CG14450 (GeneID 40490)	1	10.2	22.2	6264	5079	inactive
CG14450 (GeneID 40490)	2	22	22	5009	4048	inactive
Epp (GeneID 42840)	1	4.06	4.3	6251	6714	inactive
Epp (GeneID 42840)	2	9.78	28.7	4122	5317	inactive
CG30393 (GeneID 246588)	1	7.34	9.21	6482	6429	inactive
CG30393 (GeneID 246588)	2	3.4	2.6	6639	6203	inactive
CG31819 (GeneID 260658)	1	2.19	1.19	6152	6028	inactive
CG31819 (GeneID 260658)	2	27.7	26.9	4833	6081	inactive
bab1 (GeneID 38116)	1	2.75	6.68	6261	6275	inactive
bab1 (GeneID 38116)	2	10.8	18.2	6401	3880	inactive
bab1 (GeneID 38116)	3	2.76	3.34	6714	6703	inactive
CG7394 (GeneID 39294)	1	9.3	9.85	5451	6419	inactive
LysE (GeneID 38128)	1	4.51	11.5	6519	5890	inactive
Dyro (GeneID 39271)	1	0.54	2.36	6064	6188	inactive
Dyro (GeneID 39271)	2	2.81	18	6688	6095	inactive
CG32132 (retired record) (GeneID 317877)	1	0.96	11.4	6166	6550	inactive
Clic (GeneID 32349)	1	14	7.01	6857	7019	inactive
5-HT1A (GeneID 37196)	1	2.23	2.94	6814	6671	inactive
5-HT1A (GeneID 37196)	2	6.84	4.35	6019	6075	inactive
Spn100A (GeneID 43642)	1	1.69	10.9	5804	5264	inactive
Cpr76Bb (GeneID 40121)	1	1.4	2.88	6572	6226	inactive
Cpr76Bb (GeneID 40121)	2	2.58		5035	374	inactive
Cpr76Bb (GeneID 40121)	3	3.93	2.11	6797	6252	inactive
Atg10 + CG12822	1	15.9	8.24	5479	1481	inactive

Reagents listed so far marked active, once more:
gene knocked down	reagent no.	infection score, replicate 1	infection score, replicate 2	cell count, replicate 1	cell count, replicate 2	Call
CG9801 (GeneID 41044)	1	2.28	2.99	6897	6649	active
